The record followed here is patent US20190127444A1, “Compositions and methods for anti-staphylococcal biologic agents” (NEW YORK UNIVERSITY, published 2019).

Assay [1] concerns the target T1, LukAB^mut3 stem domain mutant variant (S. aureus, UniProt Q2FFA2 31-351; P21224 30-338).
T1 sequence 1: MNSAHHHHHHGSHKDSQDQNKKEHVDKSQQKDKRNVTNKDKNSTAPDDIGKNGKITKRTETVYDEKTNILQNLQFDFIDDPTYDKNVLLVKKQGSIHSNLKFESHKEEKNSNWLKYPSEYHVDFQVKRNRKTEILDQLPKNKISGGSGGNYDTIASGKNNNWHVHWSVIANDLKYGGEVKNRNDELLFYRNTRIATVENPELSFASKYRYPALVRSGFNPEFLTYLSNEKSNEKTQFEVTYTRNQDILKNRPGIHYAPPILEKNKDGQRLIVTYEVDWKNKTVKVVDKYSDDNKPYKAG
T1 sequence 2: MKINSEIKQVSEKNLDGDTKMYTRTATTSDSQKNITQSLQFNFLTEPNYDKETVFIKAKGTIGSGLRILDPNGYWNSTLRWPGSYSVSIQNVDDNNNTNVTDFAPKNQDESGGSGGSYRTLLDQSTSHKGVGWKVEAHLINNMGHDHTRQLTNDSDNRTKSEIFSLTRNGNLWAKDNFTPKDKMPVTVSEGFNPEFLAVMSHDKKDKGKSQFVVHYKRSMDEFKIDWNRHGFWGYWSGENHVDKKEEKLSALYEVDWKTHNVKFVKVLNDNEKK
In words: BLI, FN3 protein on streptavidin pins, LukAB variant at 10 ug/mL. On the technique in general: In BLI a coated tip is dipped into the sample, and binding shifts an interference pattern.

In assay [2] the target is T1, LukAB^mut3 stem domain mutant variant. In words: BLI, FN3 protein on streptavidin pins, LukAB variant in solution.

B1: Luk17-His-SA (designed binder)
chain: MLPAPKNLVVSRVTEDSARLSWTAPDAAFDSFWITYEEKFYRGEAIVLTVPGSERSYDLTGLKPGTEYKVWIVGVKGGQGSWPLSAIFTTGGHHHHHHGGGLNDIFEAQKIEWHE
As for B1, the binding result in assay [1] is reported as “binds”.

B2: TENCON-His-SA (designed binder)
chain: MLPAPKNLVVSRVTEDSARLSWTAPDAAFDSFLIQYQESEKVGEAIVLTVPGSERSYDLTGLKPGTEYTVSIYGVKGGHRSNPLSAIFTTGGHHHHHHGGGLNDIFEAQKIEWHE
notes: also called parental control FN3 domain protein
For the molecule B2, the binding result in assay [2] was “no binding (tested: 10 ug/mL)”.
